Compound potency records, mixed from different reports. Data source: NIAID ChemDB in PubChem.

Shared fields: whole-cell or culture tests; species: HIV-1; cells: MT-4; measure: EC50

Lines come from different laboratories, so protocols vary. An empty or dashed field is not shown. ECn is the concentration giving n% inhibition of infection, replication or growth.

SMILES,strain or isolate,mutations,method,result
Nc1ccn([C@H]2CC[C@@H](CO)O2)c(=O)n1,Recombinant mutant,RT-A98S E138A,cytopathic effect / MTT,2.512 µM
Nc1ncnc2c1ncn2CCOCP(=O)(O)O,IIIB,-,cytopathic effect / trypan blue,5.9 µM
CCn1c(=O)c(C)cn([C@@H]2O[C@H](CO[Si](C)(C)C(C)(C)C)C3(OS(=O)(=O)C=C3N)[C@H]2O[Si](C)(C)C(C)(C)C)c1=O,Recombinant mutant,RT-A98S E138A,cytopathic effect / MTT,0.906 µM
CO[C@H]1[C@@H](O)[C@H](n2cnc3c(N)ncnc32)[C@@H](O)[C@H](O)[C@@H]1O.O=C(O)/C=C/C(=O)O,IIIB,-,cytopathic effect / MTT,>10 µg/mL
Cc1c(Sc2ccccc2)n(COCCO)c(=O)[nH]c1=O,-,-,cytopathic effect,7 µM
COc1ccc(/C=C/C(=O)/C=C(O)/C=C/c2ccc(OC)c(OC)c2)cc1OC,-,-,cytopathic effect / MTT,>4.1 µM
Cc1cn([C@@H]2O[C@H](CO[Si](C)(C)C(C)(C)C)C3(OS(=O)(=O)C=C3N)[C@H]2O[Si](C)(C)C(C)(C)C)c(=O)n(C)c1=O,Recombinant wild type,-,cytopathic effect / MTT,0.055 µM
CCc1c(Cc2c(Cl)cccc2Cl)nc(SCc2ccc(C#N)cc2)[nH]c1=O,NL4-3,-,MTT,0.044 µM
CC(=O)Nc1ccc(-n2nc3ccccc3n2)cc1,IIIB,-,MTT,>66 µM
O=c1[nH]cnc2c1ncn2[C@H]1CC[C@@H](CO)O1,LAI,-,RT activity,11 µM
Cc1cn([C@H]2C[C@H](N=[N+]=[N-])[C@@H](CO)O2)c(=O)[nH]c1=O,IIIB,-,cytopathic effect,0.003 µM
Nc1nc2c(ncn2CCOCP(=O)(O)O)c(=O)[nH]1,IIIB,-,MTT,0.19 µM
Cc1c(Cc2c(F)cccc2F)nc(SCc2ccc3c(c2)OCO3)[nH]c1=O,NL4-3,-,MTT,0.15 µM
CO[C@H]1[C@@H](O)[C@H](n2cnc3c(N)ncnc32)[C@@H](O)[C@H](O)[C@@H]1O,IIIB,-,cytopathic effect / MTT,<10 µg/mL
Cc1ccnc2c1NC(=O)c1cccnc1N2C1CC1,Recombinant mutant,RT-A98S,cytopathic effect / MTT,0.037 µM
CC(C)[C@H](NC(=O)N(C)Cc1ccccn1)C(=O)N[C@@H](Cc1ccccc1)[C@H](O)[C@H](O)[C@H](Cc1ccccc1)NC(=O)[C@@H](NC(=O)N(C)Cc1ccccn1)C(C)C,NL4-3,-,p24,0.2 µM
C/C=C(/C)C(=O)O[C@@H]1[C@@H](C)[C@@]2(O)C(C=C(CO)C[C@]3(O)C(=O)C(C)=CC23)C2C(C)(C)[C@@]21OC(=O)C(C)CC,LAV-1,-,cytopathic effect / microscopy / visual reading,<31.3 µg/mL
C=C[C@@]1(CO)CO[C@@H](n2ccc(=O)[nH]c2=O)C1,-,-,-,78.9 µg/mL
NOCc1ccccc1F,IIIB,-,cytopathic effect / MTT,8.15 µg/mL
Cc1c(Sc2ccccc2)n(COCCO)c(=O)[nH]c1=O,IIIB,-,cytopathic effect / MTT,5.06 µM
NOCc1cccc(Cl)c1Cl,IIIB,-,cytopathic effect / MTT,8.99 µg/mL
CC(=O)SCCOP(=O)(OCCSC(C)=O)OC[C@@H]1CC[C@H](n2cnc3c(N)ncnc32)O1,LAI,-,RT activity,0.011 µM
Nc1nc2c(ncn2CC(CF)OCP(=O)(O)O)c(=O)[nH]1,IIIB,-,cytopathic effect / trypan blue,13 µM
CO[C@@H]1[C@@H](O)[C@@H](O)[C@H](O)[C@H](O)[C@H]1n1ccc(N)nc1=O,IIIB,-,cytopathic effect / MTT,>10 µg/mL
O=C(/C=C(O)/C=C/c1ccc(O)cc1)/C=C/c1ccc(O)cc1,-,-,cytopathic effect / MTT,>13 µM
NOCc1c(F)cccc1Cl,MN,-,cytopathic effect / MTT,2.9 µg/mL
CCc1c(Sc2cccc3ccccc23)nc(SCC(=O)c2ccc(Cl)cc2)[nH]c1=O,IIIB,-,cytopathic effect / MTT,5.94 µM
CO[C@@H]1[C@@H](O)[C@@H](O)[C@H](O)[C@H](O)[C@H]1n1cnc2c(N)ncnc21,IIIB,-,cytopathic effect / MTT,>10 µg/mL
CCC(C)Sc1nc(Cc2ccccc2)c(C)c(=O)[nH]1,IIIB,-,cytopathic effect / MTT,0.06 µM
O=C(/C=C/c1ccc(O)c(O)c1)/C=C/c1ccc(O)c(O)c1,-,-,cytopathic effect / MTT,>38 µM
COc1ccc(CSc2nc(Cc3c(F)cccc3F)c(C)c(=O)[nH]2)cc1OC,NL4-3,-,MTT,0.2 µM
Nc1nc(N)c2ncn(CC(CO)OCP(=O)(O)O)c2n1,IIIB,-,cytopathic effect / trypan blue,>40 µM
CC12OC[C@H]3O[C@H](C[C@@H]3N=[N+]=[N-])N1C(=O)NC(=O)[C@@]2(C)Br,IIIB,-,p24,0.008 µM
[NH4+],IIIB,-,antigen,>100 µg/mL
Nc1nc(N)c2ncn(CCOCP(=O)(O)O)c2n1,IIIB,-,MTT,2.6 µM
C1CNCCNCCCNCCNC1,IIIB,-,cytopathic effect / MTT,>500 µg/mL
Nc1nc2c(ncn2CC(CO)OCP(=O)(O)O)c(=O)[nH]1,IIIB,-,cytopathic effect / trypan blue,>100 µM
O=C(/C=C/c1ccc(O)c(O)c1)c1ccccc1,-,-,cytopathic effect / MTT,>1.7 µM
O=c1[nH]cnc2c1ncn2[C@H]1CC[C@@H](CO)O1,IIIB Recombinant wild type,-,cytopathic effect / MTT,1.799 µM
CCCCC/C=C\C/C=C\CCCCCCCC(=O)OCC1=C[C@H]2[C@@H]3C(C)(C)[C@]3(OC(C)=O)[C@H](O)[C@@H](C)[C@]2(O)[C@@H]2C=C(C)C(=O)[C@@]2(O)C1,LAV-1,-,cytopathic effect / microscopy / visual reading,<15.6 µg/mL
CC(C)=CCN1Cc2cc(Cl)cc3[nH]c(=S)n(c23)C[C@@H]1C,-,RT-M41L T215Y,-,<0.4 µM
O=C1/C(=C/c2ccc(O)c(O)c2)CCC/C1=C\c1ccc(O)c(O)c1,-,-,cytopathic effect / MTT,>7.4 µM
C1CNCCNCCCN[C@H]([C@H]2CNCCCNCCNCCCN2)CNC1,IIIB,-,cytopathic effect / MTT,0.21 µg/mL
CCCCCCCCCCCCCC(=O)O[C@@H]1[C@@H](C)[C@@]2(O)[C@@H](C=C(CO)C[C@]3(O)C(=O)C(C)=C[C@@H]23)[C@@H]2C(C)(C)[C@]12OC(C)=O,LAV-1,-,cytopathic effect / microscopy / visual reading,<0.00048 µg/mL
Cc1cn([C@H]2C[C@H](N=[N+]=[N-])[C@@H](CO)O2)c(=O)[nH]c1=O,NL4-3,-,MTT,0.003 µM
CCCCCCCCCCCC(=O)O[C@@]12[C@H](OC(=O)C(C)CC)[C@@H](C)[C@@]3(O)[C@@H](C=C(CO)C[C@]4(O)C(=O)C(C)=C[C@@H]34)[C@@H]1C2(C)C,LAV-1,-,cytopathic effect / microscopy / visual reading,<15.76 µg/mL
O=C(/C=C(O)/C=C/c1ccc(O)c(O)c1)/C=C/c1ccc(O)c(O)c1,-,-,cytopathic effect / MTT,>17 µM

Repeating the first 7 entries:

SMILES,strain or isolate,mutations,method,result
Nc1ccn([C@H]2CC[C@@H](CO)O2)c(=O)n1,Recombinant mutant,RT-A98S E138A,cytopathic effect / MTT,2.512 µM
Nc1ncnc2c1ncn2CCOCP(=O)(O)O,IIIB,-,cytopathic effect / trypan blue,5.9 µM
CCn1c(=O)c(C)cn([C@@H]2O[C@H](CO[Si](C)(C)C(C)(C)C)C3(OS(=O)(=O)C=C3N)[C@H]2O[Si](C)(C)C(C)(C)C)c1=O,Recombinant mutant,RT-A98S E138A,cytopathic effect / MTT,0.906 µM
CO[C@H]1[C@@H](O)[C@H](n2cnc3c(N)ncnc32)[C@@H](O)[C@H](O)[C@@H]1O.O=C(O)/C=C/C(=O)O,IIIB,-,cytopathic effect / MTT,>10 µg/mL
Cc1c(Sc2ccccc2)n(COCCO)c(=O)[nH]c1=O,-,-,cytopathic effect,7 µM
COc1ccc(/C=C/C(=O)/C=C(O)/C=C/c2ccc(OC)c(OC)c2)cc1OC,-,-,cytopathic effect / MTT,>4.1 µM
Cc1cn([C@@H]2O[C@H](CO[Si](C)(C)C(C)(C)C)C3(OS(=O)(=O)C=C3N)[C@H]2O[Si](C)(C)C(C)(C)C)c(=O)n(C)c1=O,Recombinant wild type,-,cytopathic effect / MTT,0.055 µM